For assay [1], the target named is PfNPM A1 (residues 1-110, up to A1 acidic tract) (Plasmodium falciparum) (UniProt C0H4U4). Briefly: pull-down.
The target in assay [2] is PfNPM A3 (residues 1-170, up to A3 acidic tract) (Plasmodium falciparum) (UniProt C0H4U4). Briefly: pull-down.

With “assembled H2A/H2B dimer (from UniProt P06897 1-130; P02281 1-126) (complex)”, the highest NaCl concentration at which the complex was stable in assay [1] and in assay [2] was 400 mM NaCl each time.
